From publication PMC9142731 (Virology Journal, 2022)

Chains of the proteins cited; added tags and fusions are not shown. Lines headed by an entry give the natural chain unless they say otherwise; changes in a name come on top.
UniProt Q6Q1R8: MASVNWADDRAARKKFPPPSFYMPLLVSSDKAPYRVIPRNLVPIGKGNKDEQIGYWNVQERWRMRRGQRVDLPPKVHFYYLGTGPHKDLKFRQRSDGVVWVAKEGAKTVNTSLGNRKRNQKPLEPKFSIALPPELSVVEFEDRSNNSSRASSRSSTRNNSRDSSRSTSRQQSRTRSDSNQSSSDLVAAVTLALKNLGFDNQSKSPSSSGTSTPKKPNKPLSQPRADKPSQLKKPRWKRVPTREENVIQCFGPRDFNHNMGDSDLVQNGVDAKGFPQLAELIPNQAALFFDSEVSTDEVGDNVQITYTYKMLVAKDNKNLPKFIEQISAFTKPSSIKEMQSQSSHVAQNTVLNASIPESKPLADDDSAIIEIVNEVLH
UniProt P33469: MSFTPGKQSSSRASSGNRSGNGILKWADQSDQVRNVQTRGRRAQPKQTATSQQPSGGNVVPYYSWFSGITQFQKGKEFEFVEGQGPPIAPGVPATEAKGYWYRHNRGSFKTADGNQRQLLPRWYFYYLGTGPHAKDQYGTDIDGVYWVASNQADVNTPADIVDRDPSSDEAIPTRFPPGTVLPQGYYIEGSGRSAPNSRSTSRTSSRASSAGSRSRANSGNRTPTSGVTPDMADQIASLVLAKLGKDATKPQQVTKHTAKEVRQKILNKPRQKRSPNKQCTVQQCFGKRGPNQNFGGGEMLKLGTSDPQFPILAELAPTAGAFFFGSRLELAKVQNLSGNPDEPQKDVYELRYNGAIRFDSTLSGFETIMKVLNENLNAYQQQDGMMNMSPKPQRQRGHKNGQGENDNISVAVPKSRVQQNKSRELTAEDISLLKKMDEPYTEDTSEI

Legend:
Experiment in all cases: ELISA
Conditions in all cases: both partners purified
[1] = target: T1, NL63 nucleocapsid protein, recombinant (Human coronavirus NL63 (HCoV-NL63)., UniProt Q6Q1R8)
T1 construct: also called NL63 NP; source: bought: Sino Biological

[2] = target: T2, OC43 nucleocapsid protein, recombinant (Human coronavirus OC43 (HCoV-OC43)., UniProt P33469)
T2 construct: also called OC43 NP; source: bought: Sino Biological

[3] = target: T3, HKU1 nucleocapsid protein, recombinant (Human coronavirus HKU1 (isolate N1) …, UniProt Q5MQC6)
T3 construct: also called HKU1 NP; source: bought: Sino Biological

[4] = target: T4, MERS-CoV nucleocapsid protein, recombinant (MERS-CoV, strain , UniProt K9N4V7)
T4 construct: also called MERS-CoV NP; source: bought: Sino Biological

Measured: binding result

B1: P301-H5 (antibody, V domains shown)
VH: EVQLVESGGGLVQPGGSLKLSCAASGFTFSGSAMHWVRQASGKGLEWVGRIRSKANSYATAYAASVKGRFTISRDDSKNTAYLQMNSLKTEDTAVYYCNFRGAFDYWGQGTLVTVSS
VL: not shown
notes: source: 293 F cells, transient transfection, purified (Protein A beads)
no binding: all assays above
